From article PMC11788822, “Uncovering the potent antimicrobial activity of squaramide based anionophores – chloride transport and membrane disruption” (Chemical Science, 2025)

System: S. aureus cells
Assay: STED nanoscopy of cellular distribution
Format: cell-based, Staphylococcus aureus
Details: 3 μM, 30 min, fixed cells

Compound: CCN1C(=O)c2cccc3c(NCCNc4c(NC56CC7CC(CC(C7)C5)C6)c(=O)c4=O)ccc(c23)C1=O [Compound 7]
- cellular distribution of fluorescence: membrane accumulation
